Values from PubChem BioAssay AID1259414 (Drosophila RNAi Screening Center, 2018)

Screen: 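Fly genes that alter Wolbachia amount inside host cells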 (primary screen)
Cells: Drosophila JW18 cells infected with Wolbachia
Knock-down reagent: long dsRNA against Drosophila genes, 0.25 µg dsRNA per well of a 384-well plate
Time to read-out: 5 days
Conditions: cells persistently infected with Wolbachia before knock-down; no added drug
Measurement: 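Automated imaging of bacterial rRNA staining divided by host cell count, reported as plate-normalised robust z-score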
Direction: Wolbachia per cell robust z: higher = more Wolbachia per host cell than the plate typical
Rule for the call: 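Active if absolute robust z reaches 1.5 in two or more of three replicates, leaving out multi- or no-target dsRNAs, genes unexpressed in JW18 and A1 wells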
In all, the deposit lists about 24,000 reagents; shown is an unselected part of those with a known target gene and a result. Over the whole deposit, about 1,210 (5%) are marked active. 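Inactive calls also include excluded dsRNAs with several or no targets, genes unexpressed in JW18, and well A1, regardless of score.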 A number with no mark means an inactive call. A plus sign joins genes that one reagent is predicted to hit.

Wolbachia per cell robust z, rep 1 | Wolbachia per cell robust z, rep 2 | Wolbachia per cell robust z, rep 3 | target gene | dsRNA
-0.287 | -0.126 | 0.489 | CG7386 (GeneID 38719) | DRSC10832
0.729 | -6.15 | 0.629 | CG7386 (GeneID 38719) | DRSC29368
-0.397 | 1.04 | 1.28 | CG32486 (GeneID 38367) | DRSC08413
-0.53 | -0.91 | 0.307 | CG32486 (GeneID 38367) | DRSC08488
0.262 | 1.3 | -0.237 | mthl14 (GeneID 318046) | DRSC07865
0.924 | 1.06 | -0.328 | lncRNA:CR42790 (GeneID 10178860) | DRSC41430
-1.21 | 2.11 | -0.746 | asRNA:CR43159 + yellow-k | DRSC10851
0.274 | -1.12 | 0.468 | Gel (GeneID 46008) | DRSC12350
0.961 | 0.459 | 0.934 | Gel (GeneID 46008) | DRSC24569
-3.61 (active) | -6.49 | -4.88 | su(Hw) (GeneID 41740) | DRSC17074
0.299 | -0.564 | 0.436 | ICA69 (GeneID 40331) | DRSC11621
0.901 | -0.23 | 0.0291 | CG10936 (GeneID 37000) | DRSC05669
-6.14 | 0.374 | 0.325 | CG10936 (GeneID 37000) | DRSC05670
-3.02 | -0.2 | -2.51 | CG10936 (GeneID 37000) | DRSC06018

Called active, of those listed so far:
Wolbachia per cell robust z, rep 1 | Wolbachia per cell robust z, rep 2 | Wolbachia per cell robust z, rep 3 | target gene | dsRNA
-3.61 (active) | -6.49 | -4.88 | su(Hw) (GeneID 41740) | DRSC17074

More entries:
Wolbachia per cell robust z, rep 1 | Wolbachia per cell robust z, rep 2 | Wolbachia per cell robust z, rep 3 | target gene | dsRNA
-0.678 | 0.972 | -0.0667 | CG33460 (GeneID 3885588) | DRSC05570
0.267 | -0.384 | 0.0543 | Mtr3 (GeneID 40173) | DRSC10953
0.428 | 2.66 | 1.32 | Mtr3 (GeneID 40173) | DRSC26956
1.75 | -0.409 | 0.0677 | CG7182 (GeneID 38944) | DRSC10780
0.594 | 0.819 | 0.425 | CG7182 (GeneID 38944) | DRSC24776
-0.0435 | 0.574 | -2.14 | CG32196 (GeneID 317908) | DRSC09548
-2.31 | -3.11 | 0.377 | CG18745 (GeneID 59141) | DRSC15382
-0.283 | 0.912 | 0.00563 | CG18745 (GeneID 59141) | DRSC30088
-5.54 | 0.67 | 0.368 | Osi10b (GeneID 40764) | DRSC12279
1.08 | 0.91 | -4.68 | CG16826 (GeneID 34741) | DRSC02527
-0.242 | -0.541 | -0.367 | CG6659 (GeneID 32854) | DRSC20003
0.226 | -0.47 | -0.416 | CD98hc (GeneID 40941) | DRSC15453
-0.96 | 0.451 | -1.33 | Mcad (GeneID 38864) | DRSC09871
0.487 | -1.33 | -0.158 | Mcad (GeneID 38864) | DRSC25980
